The values that follow come from paper PMC6242908.

Amino acid sequences for entries named in this document (tags omitted). A change or cut given only in a name is not applied to a line headed by its entry.
UniProt Q57YK5: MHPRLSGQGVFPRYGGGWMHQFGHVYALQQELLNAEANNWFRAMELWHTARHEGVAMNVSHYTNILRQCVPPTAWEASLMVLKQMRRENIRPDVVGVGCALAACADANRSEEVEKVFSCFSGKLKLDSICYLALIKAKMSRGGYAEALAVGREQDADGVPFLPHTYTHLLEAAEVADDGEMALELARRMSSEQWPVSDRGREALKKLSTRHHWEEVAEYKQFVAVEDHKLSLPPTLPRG

Construct, isoform or probe ends are uncertain for at least one entry. For some of these results: No signal at the amounts used counts as a negative. For some of these results: At least one verdict was read from the data and is not stated in words by the source. For some of these results: The comparison behind a weaker result is the experiment's own reference, which may not be listed here.

Data set [1] deals with MBP-KRIPP11-His6 (Trypanosoma brucei) (UniProt Q57YK5). As to the kind of experiment: EMSA. The note with it: EMSA: same buffer with BSA and RNAsin, 150 nM RNA/DNA, 2% tris-glycine agarose, recombinant protein, protein details: N-terminal MBP with TEV site, C-terminal His6, label: 5'-fluorescein. For orientation: Mobility shift assays separate free from complexed probe on a gel.

The target is the same in data set [2]. Description: fluorescence anisotropy. Particulars: FA: 20 mM Tris-HCl pH 7.5, 150 mM KCl, 5 mM MgCl2, 1 mM DTT, 20 nM RNA/DNA, 25 C, recombinant protein, protein details: N-terminal MBP with TEV site, label: 5'-fluorescein.
For data set [3] the target is unchanged. As to the kind of experiment: FRET. Particulars: 50 nM RNA, TAMRA emission rises with protein, quadruplex not disrupted; recombinant protein; protein details: N-terminal MBP with TEV site, C-terminal His6.

Consider AAAAAAAAAAAA [A12 RNA], for which the binding result in data set [1] (up to 12 uM protein) and in data set [2] (no substantial saturable shift) was “no binding” throughout.
Consider CCCCCCCCCCCC [C12 RNA], for which the binding result in data set [1] (up to 12 uM protein) and in data set [2] (no substantial saturable shift) was “no binding” each time.
Take GGGGGG [G6 RNA]: in data set [1] (no stable complex, although FA shows binding), the binding result is given as “no binding”.
For GGGGGGGGG [G9 RNA], the binding result in data set [1] (intense shifted band) is listed as “binds”.
For the sequence GGGGGGGGGGGG (double strand) [(G.C)12], the binding result in data set [1] is given as “no binding”.
For the sequence “GGGGGGGGGGGG / GGGGGGGGGGGG [5'-FLUO-G12/G12-TAMRA-3' annealed]”, in data set [3], the binding result is on record as “binds”.
As to GGGGGGGGGGGG [G12 RNA (native)], the binding result in data set [1] (up to 12 uM protein) is given as “binds”.
For the sequence “GGGGGGGGGGGG [G12 RNA, thermally denatured]”, the binding result in data set [2] (95 C then snap cooled, isotherm did not saturate) is given as “binds more weakly”.
Turning to GGGGGGGGGGGG [dG12], in data set [1] (shift only at higher protein, DNA, single-stranded DNA), the binding result is listed as “binds more weakly”.
As to UUUUUUUUUUUU [U12 RNA], the binding result in data set [1] (up to 12 uM protein) and in data set [2] (no substantial saturable shift) was “no binding” in each case.
